Test results reported in publication PMC12406258, “Uncovering the Unusual Inhibition Mechanism of a Trypanosome Alternative Oxidase Inhibitor Displaying Broad-Spectrum Activity against African Animal Trypanosomes” (Journal of Medicinal Chemistry, 2025).

Key:
Format in all cases: cell-based
T. b. brucei SUR10 = conditions: resistance factor relative to T. b. brucei wild type
T. brucei aqp1-3 null = conditions: resistance factor relative to T. b. brucei wild type
Method: (§1) Other Trypanosoma species used in this study include T. evansi AntTat 3/3 (Wild-type); and T. equiperdum BoTat 1 (Bordeaux trypanozoon antigenic type 1) P (wild-type). All the trypanosomes were used only as bloodstream trypomastigotes and cultured in the standard Hirumi’s Modified Iscove’s medium #9 (HMI-9), supplemented with 10% heat-inactivated Fetal Bovine Serum (FBS), 14 μL/L β-mercaptoethanol, and 3.0 g sodium hydrogen carbonate per liter of medium (pH 7.4). Trypanosomes were cultured in vented flasks at 37 °C in a 5% CO2 atmosphere.
(§2) Briefly, this protocol involves preparing a 96-well cell culture plate with a 100 μL serially diluted test compound (200 μM top concentration) in HMI-9 + 10% FBS (24 wells per control drug or test compound, with the 24th well serving as drug-free). This is followed by adjusting the cell density of mid-log-phase trypanosome cultures to the required concentration of 2 × 10^5 cells/mL (2 × 10^4 cells/well). […] All incubations were carried out at 37 °C with 5% CO2. […] EC50 values were calculated using GraphPad Prism 9.0 software via nonlinear regression with an equation for a sigmoidal dose–response curve with variable slope (GraphPad Software Inc., San Diego, CA, USA).

[1] = system: T. b. brucei WT (s427) trypomastigotes; conditions: RF = EC50 (in the presence of glycerol)/EC50 (without glycerol)
Method: as §1, §2

T. brucei B48 = conditions: resistance factor relative to T. b. brucei wild type
Method: as §1, §2

| SMILES | SUR10 RF (T. b. brucei SUR10) | aqp1-3 null RF (T. brucei aqp1-3 null) | T. b. brucei WT (+5 mM glycerol) RF [1] | T. brucei B48 RF (T. brucei B48) |
| --- | --- | --- | --- | --- |
| Cc1cc(O)ccc1C(=O)OCCCCCCCCCCCCCC[P+](c1ccccc1)(c1ccccc1)c1ccccn1.[Br-] [Compound 1, {14-[(4-Hydroxy-2-methylbenzoyl)-oxy]-tetradecyl}-diphenyl(pyridin-2-yl)-Phosphonium Bromide] | 1.14 | 0.38 | 0.45 | 0.8 |
| N=C(N)c1ccc(/N=N/Nc2ccc(C(=N)N)cc2)cc1 [Dim., Diminazene aceturate] | – | – | 1.15 | – |
| N=C(N)c1ccc(OCCCCCOc2ccc(C(=N)N)cc2)cc1 [Pent., Pentamidine isethionate] | – | 12.1 | 1.49 | 243 |
| Cc1ccc(C(=O)Nc2ccc(S(=O)(=O)O)c3cc(S(=O)(=O)O)cc(S(=O)(=O)O)c23)cc1NC(=O)c1cccc(NC(=O)Nc2cccc(C(=O)Nc3cc(C(=O)Nc4ccc(S(=O)(=O)O)c5cc(S(=O)(=O)O)cc(S(=O)(=O)O)c45)ccc3C)c2)c1 [Suramin, reference compound] | 21.1 | – | – | – |
